Test results from patent US7312060.

Biological target: α-hemolysin (α-HL), wild type, with C-terminal His-6 tag (from plasmid pT7-WT-H6-αHL) (UniProt P09616)

## trypsin (pure, Sigma Chemicals)
  mobility shift in SDS-capillary gel electrophoresis (proteolysis): it showed peaks eluting earlier (13, 14 and 15 min) and major peak at 21 min
